Compound potency records, mixed from different reports. Data source: NIAID ChemDB in PubChem.

Common to all: tests in culture; species: Streptococcus pneumoniae

Conditions beyond the fields shown may differ between rows. A number after MIC or MFC names an inhibition level or a share of isolates.

{"structure": "CC[C@H]1OC(=O)[C@H](C)C(=O)[C@H](C)[C@@H](O[C@@H]2O[C@H](C)C[C@H](N(C)C)[C@H]2O)[C@@]2(C)C[C@@H](C)C(=NC(C)=O)[C@H](C)[C@@H](OC/C(=N\\OCCc3ccccc3)CO2)[C@]1(C)O", "strain or isolate": "7701 (erythromycin-resistant-MEF)", "endpoint": "MIC", "result": "0.5 µg/mL"}
{"structure": "CC[C@H]1OC(=O)[C@H](C)C(=O)[C@H](C)[C@@H](O[C@@H]2O[C@H](C)C[C@H](N(C)C)[C@H]2O)[C@](C)(OC)C[C@@H](C)C(=O)[C@H](C)[C@H]2N(CCCCn3cnc(-c4cccnc4)c3)C(=O)O[C@]12C", "endpoint": "MIC90", "result": "0.25 µg/mL"}
{"structure": "COCC1=C(C(=O)O)N2C(=O)C(NC(=O)/C(=N/OC)c3csc(N)n3)C2SC1", "strain or isolate": "595 strains", "endpoint": "MIC50", "result": "≤0.06 µg/mL"}
{"structure": "CC[C@H]1OC(=O)[C@@](C)(F)C(=O)[C@H](C)[C@@H](O[C@@H]2O[C@H](C)C[C@H](N(C)C)[C@H]2O)[C@@]2(C)C[C@@H](C)C(=NC(C)=O)[C@H](C)[C@@H](OC/C(=N\\OCC#Cc3cccc(N)n3)CO2)[C@]1(C)O", "strain or isolate": "49619 (erythromycin A-susceptible)", "endpoint": "MIC", "result": "<0.06 µg/mL"}
{"structure": "CC[C@H]1OC(=O)[C@H](C)C(=O)[C@H](C)[C@@H](O[C@@H]2O[C@H](C)C[C@H](N(C)C)[C@H]2O)[C@@]2(C)C[C@@H](C)C(=NC(C)=O)[C@H](C)[C@@H](OC/C(=N\\Oc3ccc(-c4nccs4)nc3)CO2)[C@]1(C)O", "strain or isolate": "49619 (erythromycin-susceptible)", "endpoint": "MIC", "result": "<0.06 µg/mL"}
{"structure": "CC[C@H]1OC(=O)[C@@](C)(F)C(=O)[C@H](C)[C@@H](O[C@@H]2O[C@H](C)C[C@H](N(C)C)[C@H]2O)[C@@]2(C)C[C@@H](C)C(=NC(C)=O)[C@H](C)[C@@H](OC/C(=N\\OCc3ccc4cnn(C(N)=O)c4c3)CO2)[C@]1(C)O", "strain or isolate": "700906 (erythromycin A-resistant)", "endpoint": "MIC", "result": "0.25 µg/mL"}
{"structure": "COc1c(N2C[C@@H]3CCCN[C@@H]3C2)c(F)cc2c(=O)c(C(=O)O)cn(C3CC3)c12", "strain or isolate": "430 isolates (penicillin-intermediately susceptible)", "endpoint": "MIC90", "result": "0.28 µg/mL"}
{"structure": "COc1c(N2CCNC(C)C2)c(F)cc2c(=O)c(C(=O)O)cn(C3CC3)c12", "strain or isolate": "15 strains", "endpoint": "MIC90", "result": "0.39 µg/mL"}
{"structure": "CC[C@H]1OC(=O)[C@H](C)C(=O)[C@H](C)[C@@H](O[C@@H]2O[C@H](C)C[C@H](N(C)C)[C@H]2O)[C@](C)(OC)C[C@@H](C)C(=O)[C@H](C)[C@H]2N(CCCCn3cnc(-c4cccnc4)c3)C(=O)O[C@]12C", "strain or isolate": "7701 (erythromycin-resistant-MEF)", "endpoint": "MIC", "result": "0.06 µg/mL"}
{"structure": "CO/N=C1\\CN(c2nc3c(cc2F)c(=O)c(C(=O)O)cn3C2CC2)CC1CN", "strain or isolate": "28 strains (ciprofloxacin-resistant)", "endpoint": "MIC90", "result": "0.5 µg/mL"}
{"structure": "CC[C@H]1OC(=O)[C@H](C)C(=O)[C@H](C)[C@@H](O[C@@H]2O[C@H](C)C[C@H](N(C)C)[C@H]2O)[C@](C)(OC)C[C@@H](C)C(=O)[C@H](C)[C@H]2N(CCCCn3cnc(-c4cccnc4)c3)C(=O)O[C@]12C", "strain or isolate": "595 strains", "endpoint": "MIC50", "result": "≤0.06 µg/mL"}
{"structure": "CC[C@H]1OC(=O)[C@@](C)(F)C(=O)[C@H](C)[C@@H](O[C@@H]2O[C@H](C)C[C@H](N(C)C)[C@H]2O)[C@@]2(C)C[C@@H](C)C(=NC(C)=O)[C@H](C)[C@@H](OC/C(=N\\OCc3ccc(-c4nccs4)nc3)CO2)[C@]1(C)O", "strain or isolate": "49619 (erythromycin A-susceptible)", "endpoint": "MIC", "result": "<0.06 µg/mL"}
{"structure": "CO/N=C1\\CN(c2nc3c(cc2F)c(=O)c(C(=O)O)cn3C2CC2)CC1CN", "strain or isolate": "21 isolates ciprofloxacin-resistant", "endpoint": "MIC90", "result": "0.5 µg/mL"}
{"structure": "CC[C@H]1OC(=O)[C@@](C)(F)C(=O)[C@H](C)[C@@H](O[C@@H]2O[C@H](C)C[C@H](N(C)C)[C@H]2O)[C@@]2(C)C[C@@H](C)C(=NC(C)=O)[C@H](C)[C@@H](OC/C(=N\\OCc3ccc(-n4cccn4)nc3)CO2)[C@]1(C)O", "strain or isolate": "7701 (erythromycin A-resistant)", "endpoint": "MIC", "result": "0.25 µg/mL"}
{"structure": "CC[C@H]1OC(=O)[C@H](C)C(=O)[C@H](C)[C@@H](O[C@@H]2O[C@H](C)C[C@H](N(C)C)[C@H]2O)[C@@]2(C)C[C@@H](C)C(=NC(C)=O)[C@H](C)C(OC/C(=N\\OCC#Cc3cccc(N)n3)CO2)[C@]1(C)O", "strain or isolate": "7701 (erythromycin-resistant-MEF)", "endpoint": "MIC", "result": "0.13 µg/mL"}
{"structure": "CC[C@H]1OC(=O)[C@@](C)(F)C(=O)[C@H](C)[C@@H](O[C@@H]2O[C@H](C)C[C@H](N(C)C)[C@H]2O)[C@@]2(C)C[C@@H](C)C(=NC(C)=O)[C@H](C)[C@@H](OC/C(=N/OCc3ccc(-c4cccc(N)n4)s3)CO2)[C@]1(C)O", "strain or isolate": "700906 (erythromycin A-resistant)", "endpoint": "MIC", "result": "0.25 µg/mL"}
{"structure": "COc1c(N2CCNC(C)C2)c(F)cc2c(=O)c(C(=O)O)cn(C3CC3)c12", "strain or isolate": "96 strains", "endpoint": "MIC90", "result": "0.06 µg/mL"}
{"structure": "C=C1COC2[C@@H](C)C(=NC(C)=O)[C@H](C)C[C@@](C)(OC1)[C@H](O[C@@H]1O[C@H](C)C[C@H](N(C)C)[C@H]1O)[C@@H](C)C(=O)[C@@H](C)C(=O)O[C@H](CC)[C@@]2(C)O", "strain or isolate": "700906 (erythromycin-resistant-ERM)", "endpoint": "MIC", "result": ">64 µg/mL"}
{"structure": "CC[C@H]1OC(=O)[C@H](C)C(=O)[C@H](C)[C@@H](O[C@@H]2O[C@H](C)C[C@H](N(C)C)[C@H]2O)[C@@]2(C)C[C@@H](C)C(=NC(C)=O)[C@H](C)[C@@H](OC/C(=N\\OCc3ccc(C(N)=O)s3)CO2)[C@]1(C)O", "strain or isolate": "49619 (erythromycin A-susceptible)", "endpoint": "MIC", "result": "<0.06 µg/mL"}

For reference, 2 entries again:

{"structure": "COCC1=C(C(=O)O)N2C(=O)C(NC(=O)/C(=N/OC)c3csc(N)n3)C2SC1", "strain or isolate": "595 strains", "endpoint": "MIC50", "result": "≤0.06 µg/mL"}
{"structure": "COc1c(N2CCNC(C)C2)c(F)cc2c(=O)c(C(=O)O)cn(C3CC3)c12", "strain or isolate": "15 strains", "endpoint": "MIC90", "result": "0.39 µg/mL"}